Data on two substances can be found in article PMC4517146, “Enzymatic Enantioselective Decarboxylative Protonation of Heteroaryl Malonates” (Chemistry (Weinheim an Der Bergstrasse, Germany), 2015).

Holding throughout (assay): purified protein
Holding throughout (settings): assay conditions in Supporting Information

Series [1] deals with O=C(O)C(O)(C(=O)O)c1ccc2sccc2c1.
Series [2] concerns O=C(O)C(O)(C(=O)O)c1cccnc1.
Series [3] deals with O=C(O)C(O)(C(=O)O)c1cc2ccccc2o1.
Series [4] concerns O=C(O)C(O)(C(=O)O)c1ccco1.
The subject of series [5] is O=C(O)C(O)(C(=O)O)c1cccs1.
Series [6] concerns COc1ccc(C(O)(C(=O)O)C(=O)O)o1.

As usually defined, the Km is the concentration of substrate that gives half-maximal velocity. For orientation: kcat means the maximal rate divided by the concentration of active sites. Usually kcat/Km stands for the turnover number divided by the Michaelis constant. Regarding “aryl/alkenyl malonate decarboxylase (AMDase) (Bordetella bronchiseptica; M159V)”, the Km was determined as 0.82 ± 0.11 mM in series [1]; 7.3 ± 2.8 mM in series [2]; 3.6 ± 1.1 mM in series [3]; 7.2 ± 1.8 mM in series [4]; 3.5 ± 1.3 mM in series [5]. Also, the kcat in series [1] came to 54.8 s⁻¹; in series [2], 86.4 s⁻¹; in series [3] it was 182 s⁻¹; in series [4], 149 s⁻¹; in series [5] it was 79.3 s⁻¹. The specificity constant (kcat/Km) in series [1] came out at 66600 M⁻¹ s⁻¹; in series [2] it was 11800 M⁻¹ s⁻¹; in series [3] it was 50600 M⁻¹ s⁻¹; in series [4] it was 20700 M⁻¹ s⁻¹; in series [5], 22400 M⁻¹ s⁻¹.
As for “aryl/alkenyl malonate decarboxylase (AMDase) (Bordetella bronchiseptica; P14V/P15G)”, the Km was found to be 7.2 ± 1.1 mM in series [6], 13.0 ± 5.7 mM in series [2], 7.4 ± 1.8 mM in series [3] and 2.2 ± 0.5 mM in series [5]. Further, the kcat is 28.8 s⁻¹ in series [6], 42.2 s⁻¹ in series [2], 115 s⁻¹ in series [3] and 34 s⁻¹ in series [5]. The kcat/Km in series [6] turned out to be 4100 M⁻¹ s⁻¹; in series [2], 3200 M⁻¹ s⁻¹; in series [3], 15600 M⁻¹ s⁻¹; in series [5] it was 15200 M⁻¹ s⁻¹.
